Reference: article PMC4322365, “A Ligand-observed Mass Spectrometry Approach Integrated into the Fragment Based Lead Discovery Pipeline” (Scientific Reports, 2015)

Assay: Recovery rate of fragment after ultrafiltration (nonspecific binding to filter membrane)
Conditions: MS intensity of the fragment before and after ultrafiltration

SMILES | Recovery rate (%)
Oc1ccc(F)c(Cl)c1 [Fragment 85] | 75.6
Cc1ccc2oc(=O)ccc2c1 [Fragment 117] | 57.8
Cn1c(=O)cc(O)c2ccccc21 [Fragment 130] | 72.9
Cc1cc(N)n(-c2ccccc2)n1 [Fragment 131] | 77.1
Nc1ccc(C(F)(F)F)cn1 [Fragment 162] | 60.6
O=C(O)c1ccc(C(F)(F)F)cc1 [Fragment 204] | 64.4
Oc1ccc(SC(F)(F)F)cc1 [Fragment 237] | 86.7
Cc1nc2ccccc2nc1C [Fragment 339] | 94.4
